Laboratory results reported in publication PMC7824859, “BmK NSPK, a Potent Potassium Channel Inhibitor from Scorpion Buthus martensii Karsch, Promotes Neurite Outgrowth via NGF/TrkA Signaling Pathway” (Toxins, 2021).

Tested on: spinal cord neurons (SCNs)
Test: Spontaneous calcium oscillation (SCO) measurement, FLIPR Tetra, primary cultured spinal cord neurons
Type: cell-based, C57BL/6 mice
Details: 6-8 DIV
Protocol: SCN cultures were performed as described previously. The dissociated neurons were planted into poly-L-lysine-coated 35 mm Petri dishes, 96-well plates at densities of 2 × 10^3 cells/dish for patch clamp, 2.25 × 10^5 and 2 × 10^3 cells/well for Ca^2+ imaging and neurite outgrowth experiments, respectively. Cells at 6–8 DIVs (days in vitro) were used to measure K^+ and Na^+ currents, membrane potential, or intracellular Ca^2+ concentration ([Ca^2+]i).
The intracellular Ca^2+ concentration [Ca^2+]i of SCNs was measured using FLIPR^Tetra® system (Molecular Devices, Sunnyvale, CA, USA) as described previously.
All data were presented as mean ± SEM. Graphing and data analysis were performed using GraphPad Prism software (Version 6.0, San Diego, CA, USA). Concentration–response curves were fitted by a nonlinear logistic equation. The IC50 values and 95% confidence intervals (CI) were determined by nonlinear regression using GraphPad Prism software. Statistical significance between different groups was calculated using an ANOVA and, where appropriate, a Dunnett′s multiple comparison test. A p-value below 0.05 was considered statistically significant.

Substance: BmK NSPK: new short-chain scorpion peptide purified from Buthus martensii Karsch venom, Kv channel inhibitor, sequence by Edman degradation (VGKNVICIHSGQCLIPCIDAGMRFGICKNGICDCTPKG)
- Hill slope, SCO amplitude concentration-response: 1.0
- Hill slope, SCO frequency concentration-response: 1.0
